Data: patent US20230381142A1, “ANTILEISHMANIAL COMPOUNDS, COMPOSITIONS AND USE THEREOF” (TRUSTEES OF BOSTON UNIVERSITY, priority 2022, published 2023)

System: L. donovani intracellular amastigotes infecting THP-1 macrophages
Experiment: GSK intramacrophage L. donovani assay (LD AMMAC, inMac; Assay Conditions C)
Format: cell-based, Leishmania donovani
Experimental: Assay Conditions C: The intramacrophage Leishmania donovani activity assay was performed as described in Antimicrob Agents Chemother (2013) 57(7):2913-22.
The intramacrophage Leishmania donovani activity assay (LD AMMAC) at GlaxoSmithKline was performed as described.
Given the literature precedents described above and the apparent narrow tolerance for R^3 substitutions observed in the primary screen compounds, a thorough and methodical assessment was undertaken of tolerated groups at the three points of diversity (R^1/R^2/R^3) for the core. At this stage of the project, all analogues were assessed using a battery of assays performed in-house at GlaxoSmithKline. For antileishmanial activity, GSK's inMac assay was utilized. This assay provides two readouts of compound potency: average number of intracellular amastigotes per infected cell (AMMAC) EC50, percentage of infected cells per well (INFCELL) EC50, as well as a toxicity output derived from the number of host cells (MAC EC50). In addition, compounds were assessed for toxicity against HepG2 cells (HEPG2 EC50). Here, AMMAC EC50 values were focused on for relative potency assessments. […] It should be noted that for all compounds assessed in this project, the measured toxicity against THP-1 macrophages either equaled or exceeded that of HepG2 hepatocytes, therefore the MAC SI is used here as the more conservative estimate of therapeutic index.

[1] = rows whose L. donovani EC50 is in THP-1 cells (c)
[2] = THP-1 CC50 / L. donovani EC50 (THP-1)

COc1ccc(N2C(=O)c3[nH]nc(CC(C)C)c3C2c2ccccc2F)cc1 (stereo not shown) [CMLD011102]
SI Host cell potency/L. donovani potency [1]: 9.9

COc1ccc(N2C(=O)c3[nH]nc(CC(C)C)c3C2c2ccccc2Cl)c(OC)c1 (stereo not shown) [CMLD011103]
SI Host cell potency/L. donovani potency [1]: 2.0

COc1ccc(N2C(=O)c3[nH]nc(CC(C)C)c3C2c2ccsc2)cc1 (stereo not shown) [CMLD011104]
SI Host cell potency/L. donovani potency [1]: >7.9

CC(C)Cc1n[nH]c2c1C(c1ccc(F)cc1)N(c1ccc3c(c1)OC(F)(F)O3)C2=O (stereo not shown) [CMLD011105]
SI Host cell potency/L. donovani potency [1]: 5.0

COc1ccc(N2C(=O)c3[nH]nc(CC(C)C)c3C2c2cccc(C(F)(F)F)c2)cc1F (stereo not shown) [CMLD011106]
SI Host cell potency/L. donovani potency [1]: 4.0

COc1ccc(N2C(=O)c3[nH]nc(CC(C)C)c3C2c2ccccc2Br)c(OC)c1 (stereo not shown) [CMLD011109]
SI Host cell potency/L. donovani potency [1]: 2.5

COc1ccc(N2C(=O)c3[nH]nc(CC(C)C)c3C2c2cccs2)cc1 (stereo not shown) [CMLD011110]
SI Host cell potency/L. donovani potency [1]: >6.3

CC(C)Cc1n[nH]c2c1C(c1ccccc1Br)N(c1ccc(F)cc1)C2=O (stereo not shown) [CMLD011111]
SI Host cell potency/L. donovani potency [1]: 4.0

COc1ccccc1N1C(=O)c2[nH]nc(CC(C)C)c2C1c1ccccc1Br (stereo not shown) [CMLD011112]
SI Host cell potency/L. donovani potency [1]: 2.0

CC(C)Cc1n[nH]c2c1C(c1ccc(F)cc1)N(c1ccc(F)cc1)C2=O (stereo not shown) [CMLD011113]
SI Host cell potency/L. donovani potency [1]: 4.0

COc1ccc(N2C(=O)c3[nH]nc(CC(C)C)c3C2c2cccc(C(F)(F)F)c2)c(OC)c1 (stereo not shown) [CMLD011115]
SI Host cell potency/L. donovani potency [1]: 1.6

COc1cc(N2C(=O)c3[nH]nc(CC(C)C)c3C2c2ccccc2Cl)cc(OC)c1OC (stereo not shown) [CMLD011116]
SI Host cell potency/L. donovani potency [1]: 1.3

COCCN1C(=O)c2[nH]nc(CC(C)C)c2C1c1ccc(F)cc1 (stereo not shown) [CMLD011117]
SI Host cell potency/L. donovani potency [1]: >1.0

CC(C)Cc1n[nH]c2c1C(c1cccc(C(F)(F)F)c1)N(c1ccc(F)cc1)C2=O (stereo not shown) [CMLD011119]
SI Host cell potency/L. donovani potency [1]: 10.0

COc1ccc(N2C(=O)c3[nH]nc(CC(C)C)c3C2c2ccc(F)c(C)n2)cc1 (stereo not shown) [CMLD011120]
SI Host cell potency/L. donovani potency [1]: >4.0

COc1ccc(N2C(=O)c3[nH]nc(CC(C)C)c3C2c2ccc(C(F)(F)F)cc2)cc1 (stereo not shown) [CMLD011121]
SI Host cell potency/L. donovani potency [1]: 2.0

CC(C)Cc1n[nH]c2c1C(c1cccc(C(F)(F)F)c1)N(c1ccc(C(C)(C)C)cc1)C2=O (stereo not shown) [CMLD011122]
SI Host cell potency/L. donovani potency [1]: 1.6

COc1ccc(N2C(=O)c3[nH]nc(CC(C)C)c3C2c2ccc(C)s2)cc1 (stereo not shown) [CMLD011123]
SI Host cell potency/L. donovani potency [2]: 4.0

CC(C)Cc1n[nH]c2c1[C@@H](c1ccc(F)cc1)N([C@H]1CC[C@H](N(C)C)CC1)C2=O [CMLD011124]
SI Host cell potency/L. donovani potency [1]: >2.0

COc1ccc(N2C(=O)c3[nH]nc(CC(C)C)c3C2c2ccccn2)cc1 (stereo not shown) [CMLD011125]
SI Host cell potency/L. donovani potency [1]: >1.6

CC(C)Cc1n[nH]c2c1C(c1cccc(C(F)(F)F)c1)N(CCN1CCCC1)C2=O (stereo not shown) [CMLD011126]
SI Host cell potency/L. donovani potency [1]: 2.0

COc1ccc(N2C(=O)c3[nH]nc(CC(C)C)c3[C@@H]2c2ccc(F)cc2)cc1 [CMLD011128]
SI Host cell potency/L. donovani potency [1]: >25

CC(C)Cc1n[nH]c2c1C(c1ccc(F)cc1)N(CC1CCN(C)C1)C2=O (stereo not shown) [CMLD011129]
SI Host cell potency/L. donovani potency [1]: >1.0

COc1ccccc1N1C(=O)c2[nH]nc(CC(C)C)c2C1c1ccccc1Cl (stereo not shown) [CMLD011130]
SI Host cell potency/L. donovani potency [1]: 1.6

CC(C)Cc1n[nH]c2c1C(c1cccc(Cl)c1)N(c1ccc(C(C)(C)C)cc1)C2=O (stereo not shown) [CMLD011131]
SI Host cell potency/L. donovani potency [1]: 6.3

CC(C)Cc1n[nH]c2c1C(c1cccc(Cl)c1)N(c1ccc3c(c1)OCO3)C2=O (stereo not shown) [CMLD011132]
SI Host cell potency/L. donovani potency [1]: 4.0

COc1cccc(N2C(=O)c3[nH]nc(CC(C)C)c3C2c2cccc(Cl)c2)c1 (stereo not shown) [CMLD011133]
SI Host cell potency/L. donovani potency [1]: 5.0

COc1ccccc1N1C(=O)c2[nH]nc(CC(C)C)c2C1c1cccc(Cl)c1 (stereo not shown) [CMLD011134]
SI Host cell potency/L. donovani potency [1]: 2.0

CC(C)Cc1n[nH]c2c1C(c1ccsc1)N(c1ccc(C(C)(C)C)cc1)C2=O (stereo not shown) [CMLD011135]
SI Host cell potency/L. donovani potency [1]: >12.9

CC(C)Cc1n[nH]c2c1C(c1ccsc1)N(c1ccc3c(c1)OCO3)C2=O (stereo not shown) [CMLD011136]
SI Host cell potency/L. donovani potency [2]: 10.0

COc1ccc(N2C(=O)c3[nH]nc(CC(C)C)c3C2c2ccsc2)cn1 (stereo not shown) [CMLD011137]
SI Host cell potency/L. donovani potency [1]: 2.5

COc1ccccc1N1C(=O)c2[nH]nc(CC(C)C)c2C1c1ccsc1 (stereo not shown) [CMLD011138]
SI Host cell potency/L. donovani potency [1]: 2.0

CC(C)Cc1n[nH]c2c1C(c1cccc(C(F)(F)F)c1)N(c1ccc3c(c1)OCO3)C2=O (stereo not shown) [CMLD011139]
SI Host cell potency/L. donovani potency [2]: 6.3

COc1cccc(N2C(=O)c3[nH]nc(CC(C)C)c3C2c2cccc(C(F)(F)F)c2)c1 (stereo not shown) [CMLD011140]
SI Host cell potency/L. donovani potency [1]: 4.0

COc1ccccc1N1C(=O)c2[nH]nc(CC(C)C)c2C1c1cccc(C(F)(F)F)c1 (stereo not shown) [CMLD011141]
SI Host cell potency/L. donovani potency [1]: 2.5

COc1ccc(N2C(=O)c3[nH]nc(CC(C)C)c3C2c2ccncc2)cc1 (stereo not shown) [CMLD011142]
SI Host cell potency/L. donovani potency [1]: 1.0

COc1ccc(N2C(=O)c3[nH]nc(CC(C)C)c3C2c2ccncc2Cl)cc1 (stereo not shown) [CMLD011496]
SI Host cell potency/L. donovani potency [1]: 2.0

CC(C)Cc1n[nH]c2c1C(c1ccccc1Br)N(c1ccc3c(c1)OCC(=O)N3)C2=O (stereo not shown) [CMLD011497]
SI Host cell potency/L. donovani potency [2]: 10.0

CC(C)Cc1n[nH]c2c1C(c1ccc(F)cc1)N(c1ccccc1N(C)C)C2=O (stereo not shown) [CMLD011499]
SI Host cell potency/L. donovani potency [1]: 3.2

CC(C)Cc1n[nH]c2c1C(c1c(Cl)cccc1Cl)N(c1ccc3c(c1)OCO3)C2=O (stereo not shown) [CMLD011547]
SI Host cell potency/L. donovani potency [1]: 7.9

CC(C)Cc1n[nH]c2c1C(c1c(Cl)cccc1Cl)N(c1ccc(Br)cc1)C2=O (stereo not shown) [CMLD011550]
SI Host cell potency/L. donovani potency [1]: 2.5

CC(C)Cc1n[nH]c2c1C(c1c(Cl)cccc1Cl)N(c1ccc(N(C)C)cc1)C2=O (stereo not shown) [CMLD011553]
SI Host cell potency/L. donovani potency [2]: 5.0

COc1ncc(N2C(=O)c3[nH]nc(CC(C)C)c3C2c2ccc(F)cc2)cc1C (stereo not shown) [CMLD011555]
SI Host cell potency/L. donovani potency [2]: 2.0

CC(C)Cc1n[nH]c2c1C(c1ccc(F)cc1)N(c1ccc3[nH]c(O)nc3c1)C2=O (stereo not shown) [CMLD011556]
SI Host cell potency/L. donovani potency [1]: <1

CC(C)Cc1n[nH]c2c1C(c1ccc(F)cc1)N(c1ccc3[nH]cnc3c1)C2=O (stereo not shown) [CMLD011557]
SI Host cell potency/L. donovani potency [1]: <1

CC(C)Cc1n[nH]c2c1C(c1ccc(F)cc1)N(c1ccc(S(=O)(=O)N3CCCC3)cc1)C2=O (stereo not shown) [CMLD011558]
SI Host cell potency/L. donovani potency [1]: <1

COc1ccc(N2C(=O)c3[nH]nc(CC(C)C)c3C2c2cccnc2Cl)cc1 (stereo not shown) [CMLD011559]
SI Host cell potency/L. donovani potency [1]: <0.2

CC(C)Cc1n[nH]c2c1C(c1ccc(F)cc1)N(c1ccc(N3CCCC3=O)cc1)C2=O (stereo not shown) [CMLD011560]
SI Host cell potency/L. donovani potency [2]: 5.0

COc1ccc(N2C(=O)c3[nH]nc(CC(C)C)c3C2c2c(Cl)cccc2Cl)cc1F (stereo not shown) [CMLD011568]
SI Host cell potency/L. donovani potency [1]: 3.2

COc1ccc(N2C(=O)c3[nH]nc(CC(C)C)c3C2c2c(Cl)cccc2Cl)cn1 (stereo not shown) [CMLD011569]
SI Host cell potency/L. donovani potency [1]: 4.0

COc1ccc(N2C(=O)c3[nH]nc(CC(C)C)c3C2c2ccc(F)cc2OC)cc1F (stereo not shown) [CMLD011573]
SI Host cell potency/L. donovani potency [1]: 15.8

COc1ccc(N2C(=O)c3[nH]nc(CC(C)C)c3C2c2ncccc2Cl)cc1 (stereo not shown) [CMLD011575]
SI Host cell potency/L. donovani potency [1]: 2.0
